Measured values from several laboratories, pooled; numbers as filed in NIAID ChemDB.

Shared fields: whole-cell or culture tests; agent: Candida tropicalis

A number after MIC or MFC names an inhibition level or a share of isolates. Conditions beyond the fields shown may differ between rows. Blank or dashed fields: not listed here. ECn: concentration that inhibits the pathogen or its effect by n%.

compound	strain	read by	endpoint	conditions	value
Nc1[nH]c(=O)ncc1F	KCCM 50662	broth dilution	MIC		25 µg/mL
Cc1ccc(C2CC(c3ccc4ccccc4c3)=Cc3[nH][nH]c(=O)c32)cc1			MIC		100 µg/mL
Clc1ccc(C(c2ccccc2)n2cncn2)cc1		agar	MIC90		32 µg/mL
CC1CC(=O)N(c2ccccc2)C1=O	CCC 131-2000	broth dilution / turbidity	MIC		125 µg/mL
OC(CNCCCOc1ccc(Br)cc1)(Cn1cncn1)c1ccc(F)cc1F			EC80		<0.125 µg/mL
CCCCCCCCCCCCCCCC(=O)NC(CCCCN)C(=O)NC(CCCCN)C(N)=O	4867	broth dilution	MIC		2 µg/mL
COc1ccc(/C(CCn2ccnc2)=N/OC(=O)c2ccc(Cl)cc2)cc1		agar diffusion	MIC80		0.3257 µg/mL
CC(C)CC1NC(=O)CC(CCCCCCCCC(C)O)OC(=O)C(CC(C)C)NC(=O)C(CC(C)C)NC(=O)C(CC(C)C)NC(=O)C(C(C)C)NC(=O)C(CC(=O)O)NC(=O)C(CC(C)C)NC1=O	MTCC 1406	visual reading	MFC		4 µg/mL
O=c1cc(-c2ccc(O)c(O)c2)oc2cc(O)c([C@@H]3O[C@H](CO)[C@@H](O)[C@H](O)[C@H]3O)c(O)c12	ATCC 750	broth dilution	MIC		250 µg/mL
O/N=C\c1cccs1			MIC100		3930 µM
Nc1ncccc1-c1cc(Cc2ccc(COc3ccccn3)cc2)no1	8664	broth dilution	MIC		0.03 µg/mL
CC(C)CC(O)C(=O)O	D 213	broth dilution / visual reading	MFC100		72000 µg/mL
CCC(C)CC(C)CCCCCCCCC(=O)N[C@H]1C[C@@H](O)[C@H](NCCN)NC(=O)[C@@H]2[C@@H](O)CCN2C(=O)[C@H]([C@H](O)CCN)NC(=O)[C@H]([C@H](O)[C@@H](O)c2ccc(O)cc2)NC(=O)[C@@H]2C[C@@H](O)CN2C(=O)[C@H]([C@@H](C)O)NC1=O	CLY545		MIC		0.125 µg/mL
COC(=O)c1c(N)oc2ccc(O)cc12	KCCM 50662	broth dilution	MIC		25 µg/mL
COc1ccc(N2C(=O)CC(C)C2=O)cc1	CCC 131-2000	broth dilution / turbidity	MIC		125 µg/mL
CCCCN(Cc1cn(Cc2ccc(Cl)cc2)nn1)CC(O)(Cn1cncn1)c1ccc(F)cc1F			MIC80		<0.125 µg/mL
Cc1ccccc1N1C(=O)C[C@@H](C)C1=O	CCC 131-2000	broth dilution / turbidity	MIC		125 µg/mL
C=CCc1ccc(O)c(OC)c1	2356	turbidity	MIC90		500 µg/mL
C[C@@H]1[C@H](O)[C@@H](C)/C=C/C=C/C=C/C=C/C=C/C=C/C=C/[C@H](O[C@@H]2O[C@H](C)[C@@H](O)[C@H](N)[C@@H]2O)C[C@@H]2O[C@](O)(C[C@@H](O)C[C@@H](O)[C@H](O)CC[C@@H](O)C[C@@H](O)CC(=O)O[C@H]1C)C[C@H](O)[C@H]2C(=O)O	RC-501	broth dilution	EC50		0.5 µg/mL
OC(CCn1ccnc1)c1ccc(Br)cc1	RTCC 1065	broth dilution	MIC		>64 µg/mL
C[C@@H](c1ncncc1F)[C@](O)(Cn1cncn1)c1ccc(F)cc1F	107		MIC		0.06 µg/mL
CC(C)C[C@@H]1NC(=O)[C@H](C(C)C)NC1=O	MTCC 184	broth dilution	MIC100		16 µg/mL
CC(C)(O)c1cn(-c2ccc(Cl)cc2)nn1	URM 4262	broth dilution	MIC		128 µg/mL
O=C(O/N=C(\CCn1ccnc1)c1ccccc1)c1ccc(C(F)(F)F)cc1		agar diffusion	MIC80		0.3227 µg/mL
CCCCCCCCCCCCCCCCn1cc[n+](C)c1	72A	broth dilution	MIC		0.014 µg/mL
Cc1ccc(C(=O)O/N=C(\CCn2ccnc2)c2ccccc2)cc1		agar diffusion	MIC80		0.1876 µg/mL
O=[N+]([O-])c1cccc(/C=N\O)c1			MIC100		3010 µM
Clc1ccc(C(Cn2ccnc2)OCc2csc3c(Cl)cccc23)c(Cl)c1	65 isolates	visual reading	MIC50	24 h	1 µg/mL
OC(CCn1ccnc1)c1cccc(C(O)c2ccc(Br)cc2)c1	RTCC 1065	broth dilution	MIC		>64 µg/mL
O/N=C\c1ccccc1O			MIC		3600 µM
O=C(O/N=C(\CCn1ccnc1)c1ccccc1)c1ccc(F)cc1		agar diffusion	MIC80		0.3708 µg/mL
CCCCN(Cc1cn(Cc2ccccc2C#N)nn1)CC(O)(Cn1cncn1)c1ccc(F)cc1F			MIC80		1 µg/mL
Clc1ccc(C(c2ccccc2)n2cnc3ccccc32)cc1		broth dilution	MFC		>256 µg/mL
CN1CCC[C@H]1CCCCCCCCCc1ccccc1	HB		MIC		25 µg/mL
OC(Cn1cncn1)(Cn1cncn1)c1ccc(F)cc1F	ATCC 750	broth dilution	EC50		3 µM
C[C@H]1[C@H](O)[C@@H](C)/C=C/C=C/C=C/C=C/C=C/C=C/C=C/[C@H](O[C@@H]2O[C@H](C)[C@@H](O)[C@H](N)[C@@H]2O)C[C@@H]2O[C@](O)(C[C@@H](O)C[C@@H](O)CC[C@H](O)[C@@H](O)C[C@@H](O)CC(=O)O[C@H]1C)C[C@H](O)[C@H]2C(=O)O	MTCC 1406	broth dilution	MIC100		1 µg/mL
c1ccc(C(c2ccccc2)n2ccnc2)cc1		broth dilution	MFC		64 µg/mL
COc1cc(/C=N/NC(=O)c2ccc(NC(C)=O)cc2)ccc1O	ATCC 750	broth dilution	EC50		1530 µM
CCC(C)CC(C)CCCCCCCCC(=O)N[C@H]1C[C@@H](O)[C@H](NCCN)NC(=O)[C@@H]2[C@@H](O)CCN2C(=O)[C@H]([C@H](O)CCN)NC(=O)[C@H]([C@H](O)[C@@H](O)c2ccc(O)cc2)NC(=O)[C@@H]2C[C@@H](O)CN2C(=O)[C@H]([C@@H](C)O)NC1=O	8685	broth dilution	MIC		4 µg/mL
CCCCN(Cc1cn(Cc2ccccc2Br)nn1)CC(O)(Cn1cncn1)c1ccc(F)cc1F			MIC80		0.5 µg/mL
c1ccc(C(c2ccccc2)n2cncn2)cc1		agar	MIC90		32 µg/mL
COc1ccc(/C=N\O)cc1		broth dilution	MFC		3310 µM
CC(C)C[C@H](N)C(=O)O	ATCC 750	broth dilution	MFC100		>72000 µg/mL
O=C(CCn1ccnc1)c1cccc(C(O)c2ccc(Cl)cc2)c1	RTCC 1095	broth dilution	MIC		64 µg/mL
COC(=O)c1c(N)oc2c(C)c(C)c(O)c(Sc3cccc(C)c3)c12	KCCM 50662	broth dilution	MIC		25 µg/mL
Clc1ccc(C(c2ccccc2)n2nnc3ccccc32)cc1		broth dilution	MFC		>256 µg/mL
CCCCN(Cc1cn(Cc2cccc(Cl)c2)nn1)CC(O)(Cn1cncn1)c1ccc(F)cc1F			MIC80		<0.125 µg/mL
O/N=C/c1ccc(O)cc1			MIC100		>7290 µM
O=c1[nH][nH]c2c1C(c1ccc(Br)cc1)CC(c1ccc3ccccc3c1)=C2			MIC		12.5 µg/mL
c1ccc(C(c2ccccc2)n2nnc3ccccc32)cc1		broth dilution	MFC		>256 µg/mL
CSCC[C@H]1NC(=O)[C@H]2CCCN2C1=O	MTCC 184	broth dilution	MIC100		16 µg/mL
CCCCN(Cc1cn(Cc2cccc(F)c2)nn1)CC(O)(Cn1cncn1)c1ccc(F)cc1F			MIC80		<0.125 µg/mL
O/N=C\c1ccccc1Cl			MIC		1410 µM
O=C(CCn1ccnc1)c1ccc2ccccc2c1	RTCC 1065	broth dilution	MIC		>64 µg/mL
COc1ccc(C(c2ccc(OC)cc2)n2cncn2)cc1		broth dilution	MFC		>256 µg/mL
CC1CC(=O)N(c2ccc(Cl)cc2)C1=O	CCC 131-2000	broth dilution / turbidity	MIC		250 µg/mL
Clc1ccc(C(c2ccccc2)N2CCN(CCn3cncn3)CC2)cc1		agar	MIC90		32 µg/mL
CCOc1ccc2nc3cc(N=C4NC(=O)/C(=C\c5ccc([N+](=O)[O-])o5)S4)ccc3c(N)c2c1	ATCC 8302	broth dilution	MFC		333 µg/mL
CCCCN(Cc1cn(Cc2cccc(Br)c2)nn1)CC(O)(Cn1cncn1)c1ccc(F)cc1F			MIC80		32 µg/mL